Data published in patent publication US20090305339A1, “Polypeptides With Laccase Activity” (VIALACTIA BIOSCIENCES (NZ) LIMITED, priority 2006, published 2009).

Assay: Copper content by ICP-MS

B1: YfiH: DUF152 domain containing hypothetical protein from Escherichia coli, Gene Bank AAG57706, identified as laccase (FIG. 13) (protein, listed as Escherichia coli)
chain: MSKLIVPQWPLPKGVAACSSTRIGGVSLPPYDSLNLGAHCGDNPDHVEENRKRLFAAGNLPSKPVWLEQVHGKDVLNLTGEPYASKRADASYSNTPGRVCAVMTADCLPVLFCNRAGTEVAAAHAGWRGLCAGVLEETVSCFADNPENILAWLGPAIGPRAFEVGAEVREAFMAVDAEASTAFIQHGDKYLADIYQLARQRLANVGVEQIFGGDRCTYTENETFFSYRRDKTTGRMASFIWLI
modifications: Description of sequence amino acid sequence of protein YfiH with unknown function DUF152 from Escherichia coli (Gene Bank accession number AAG57706) (see Fig. 13)
For B1, the copper content was 4.0 molecules of copper per monomer.
